From PubChem BioAssay AID588335 (The Scripps Research Institute Molecular Screening Center, 2011)
Only a part is listed here, and it is no random draw. Calls of active or inactive are those of the source. Rule as the data show it: active = inhibition above about 30%; inactive = the rest.

Test: inhibition of GDH and TPI enzymes – biochemical, absorbance, full deck, artefact control for M. tuberculosis FBA inhibitor project, primary screen (AID 588335);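 also: 0% = DMSO wells and 100% = wells lacking the enzyme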
Conditions: GDH-TPI coupled enzyme counterscreen, NADH absorbance; at 4.8 µM; active compounds read high

Compound | inhibition
O=c1c2cc([N+](=O)[O-])ccc2[nH]c2c([N+](=O)[O-])cc([N+](=O)[O-])cc12 | inactive: 12.8%
CN(C)C(=O)Oc1noc2ccccc12 | inactive: -13.1%
CC(NC(=O)COC(=O)C(O)(c1ccccc1)c1ccccc1)c1ccccc1 (stereo unspecified) | inactive: 8.63%
Cc1ccccc1OP(=O)(Nc1ccccn1)Oc1ccccc1C | inactive: 5.37%
CCC(=O)N1C2C3N(C(=O)CC)C1C1N(C(=O)CC)C(C(N1C(=O)CC)N3C(=O)CC)N2C(=O)CC | inactive: -3.81%
O=C(OC1CN2CCC1CC2)c1ccccc1 (stereo unspecified) | inactive: -10%
Cc1ccc(OP(=O)(Nc2ccccn2)Oc2ccc(C)cc2)cc1 | inactive: -4.97%
CC(=O)NC(SC(=S)N(CC(C)C)CC(C)C)C(Cl)(Cl)Cl (stereo unspecified) | inactive: 1.84%
COC(=O)c1cc2c(s1)N=C(c1ccccc1)N(C)P2(=O)N1CCOCC1 (stereo unspecified) | inactive: 4.38%
O=P1(N(CCCl)CCCl)OCCC2CCCCN21 (stereo unspecified) | inactive: 4.41%
Cc1ccc(NP(=O)(Oc2cccc(C)c2)Oc2cccc(C)c2)nc1 | inactive: -3.83%
c1ccc(-c2nn[nH]n2)c(-c2nn[nH]n2)c1 | inactive: 3.79%
CCNC(=S)/N=C(\N)N[N+](=O)[O-] | inactive: -0.31%
O=C(NC1CCS(=O)(=O)C1)NP(=S)(Oc1ccccc1)Oc1ccccc1 (stereo unspecified) | inactive: -6.73%
CC(=O)Nc1ccc(Oc2c([N+](=O)[O-])cc([N+](=O)[O-])cc2[N+](=O)[O-])cc1 | inactive: 12.3%
CC(=O)Nc1ccc([As](=O)(O)O)c(O)c1 | inactive: 7.41%
C[C@H]1OP(=O)(Oc2ccccc2)C[C@@H]2O[C@@H]21 (stereo partly specified) | inactive: -4.09%
C[C@@H]1C=CCP(=O)(Oc2ccccc2)O1 (stereo partly specified) | inactive: 6.81%
Cc1ccccc1CN(C)C(=O)COC(=O)C(O)(c1ccccc1)c1ccccc1 | inactive: 13.7%
COC(=O)C1(C)COP(=O)(NCc2ccccc2)OC1 (stereo unspecified) | inactive: 4.13%
CC(=O)c1ccc(N2CC2c2ccncc2)cc1 (stereo unspecified) | inactive: 21.9%

Compound | inhibition
N#C/C(=C\c1ccc(N(CCBr)CCBr)cc1)C(N)=O | inactive: 12.4%
CC(C)(C)C(=O)NC(Sc1ccccc1)C(Cl)(Cl)Cl (stereo unspecified) | inactive: -5.18%
CCc1cc(O)c([N+](=O)[O-])c(C)c1[N+](=O)[O-] | inactive: 7.66%
CCOc1ccc(C2=NCC(CBr)S2)cc1 (stereo unspecified) | inactive: -3.21%
O=P1(Nc2nc3ccc(Cl)cc3s2)COc2ccccc2O1 (stereo unspecified) | inactive: -8.9%
c1nnnn1CCn1cnnn1 | inactive: 1.23%
CC(C)C(=O)NC(Sc1ccccc1)C(Cl)(Cl)Cl (stereo unspecified) | inactive: 9.89%
O=P(Nc1nccs1)(c1ccccc1)c1ccccc1 | inactive: 2.52%
O=C(OC1CN2CCC1CC2)c1cccc(Cl)c1 (stereo unspecified) | inactive: 2.74%
C(Cc1nn[nH]n1)Cc1nn[nH]n1 | inactive: 5.47%
Nc1ccc([As](=O)(O)c2ccc([N+](=O)[O-])cc2)cc1 | inactive: 2.53%
O=[As](O)(c1ccccc1)c1ccc(O)cc1 | inactive: 13.9%
O=[N+]([O-])c1ccc(O)c(/C=N/Nc2ccc([N+](=O)[O-])cc2[N+](=O)[O-])c1 | inactive: 1.52%
O=[N+]([O-])c1ncn(CCn2cnc([N+](=O)[O-])n2)n1 | inactive: 3.59%
CC(=O)NC(SC(=S)N(C)C)C(Cl)(Cl)Cl (stereo unspecified) | inactive: 0.78%
C[C@H]1OP(=O)(Oc2ccccc2)[C@H](O)[C@H](O)[C@H]1N=[N+]=[N-] (stereo partly specified) | inactive: 1.36%
O=P(Nc1nc2ccccc2s1)(c1ccccc1)c1ccccc1 | inactive: 0%
O=P(Nc1ccccn1)(c1ccc(Br)cc1)c1ccc(Br)cc1 | inactive: 5.59%
CN(C)C1(CNC(=O)c2ccc(Cl)c(S(N)(=O)=O)c2)CCCCC1 | inactive: -8.89%
COc1ccc(N)c([N+](=O)[O-])c1[N+](=O)[O-] | inactive: 3.88%
